PubChem BioAssay AID504761, Drosophila RNAi Screening Center | 2011
Aim: 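Insect host genes that dengue virus relies on to spread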 (primary screen). Cell system: D.Mel-2 cells from Drosophila. Reagents: long dsRNA against Drosophila genes. Treatment: infection with dengue virus type 2; dose and infection time not stated. Read-out: 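Per well on two replicate plates, imaging gave the percent of cells positive for viral envelope protein, ranked by infection, and a nuclear count of cells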. Reading the numbers: infection score: higher = more virus-infected cells; cell count: higher = more cells in the well. Hit rule: 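Low infection ranks in the two replicates (chance level up to 0.065) followed by a retest with a 1.5-fold or larger significant decrease, p below 0.05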. Calls: active = confirmed: knock-down lowers infection; inactive = not picked or not confirmed.
The deposit covers about 22,000 reagents; below is a random part of those that have a named target and a result. Of all reagents, 116 (0.52%) are marked active. 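Calls depend on retest data that are not deposited; infection was ranked per plate without normalising between plates; the unit of the infection score is not given.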 The raw values are shown without normalisation. Entries without a mark were called inactive. Further read-outs or replicates are left out here. The record does not give: the amount of reagent, the time to read-out.

Silencing of CG4586 [DRSC18373] gave: infection score, replicate 1 = 2.29; cell count, replicate 1 = 6538. EndoU [DRSC15472] scored infection score, replicate 1 = 18.3; cell count, replicate 1 = 6743. For CG31673 [DRSC03207], the entry reads infection score, replicate 1 = 3.38; cell count, replicate 1 = 5735. Silencing of CG14785 [DRSC18604] resulted in: infection score, replicate 1 = 14.1; cell count, replicate 1 = 5625. Depletion of alpha-Man-Ia [DRSC17642] resulted in: infection score, replicate 1 = 4.64; cell count, replicate 1 = 5992. Depletion of alpha-Man-Ia [DRSC18162] came out at: infection score, replicate 1 = 3.52; cell count, replicate 1 = 4293.

Knock-down of alpha-Man-Ia [DRSC18163] gave: infection score, replicate 1 = 10.3; cell count, replicate 1 = 6293. Silencing of alpha-Man-Ia [DRSC18735] gave: infection score, replicate 1 = 12.8; cell count, replicate 1 = 5812. Knock-down of alpha-Man-Ia [DRSC23100] came out at: infection score, replicate 1 = 5.74; cell count, replicate 1 = 6341. After knock-down of scw [DRSC01711] the results were infection score, replicate 1 = 1.46; cell count, replicate 1 = 5955. With knock-down of scw [DRSC21252], the screen gave infection score, replicate 1 = 2.51; cell count, replicate 1 = 6006. Silencing of Ucp4C [DRSC03132] came out at: infection score, replicate 1 = 2.03; cell count, replicate 1 = 6101.

Depletion of Ucp4C [DRSC27836] gave: infection score, replicate 1 = 10.3; cell count, replicate 1 = 5888. Depletion of LManVI [DRSC03224] gave: infection score, replicate 1 = 2.89; cell count, replicate 1 = 6644. With knock-down of LManVI [DRSC27521] the results were infection score, replicate 1 = 4.54; cell count, replicate 1 = 6874. Against CG17593 [DRSC00504] the deposit lists infection score, replicate 1 = 9.22; cell count, replicate 1 = 5931. Depletion of CG17593 [DRSC27490] came out at: infection score, replicate 1 = 3.33; cell count, replicate 1 = 6495. ArfGAP1 [DRSC11173] gave infection score, replicate 1 = 9; cell count, replicate 1 = 6146.

After knock-down of Ak3 [DRSC16075], the record shows infection score, replicate 1 = 3.31; cell count, replicate 1 = 6487. Ak3 [DRSC27968] scored infection score, replicate 1 = 6.48; cell count, replicate 1 = 6606. After knock-down of CG1142 [DRSC12531], the record shows infection score, replicate 1 = 24.2; cell count, replicate 1 = 5223. Silencing of CG1142 [DRSC27795] resulted in: infection score, replicate 1 = 3.97; cell count, replicate 1 = 6040.

A run of entries taken from the entries so far:
alpha-Man-Ia [DRSC17642] | infection score, replicate 1: 4.64; cell count, replicate 1: 5992
alpha-Man-Ia [DRSC18162] | infection score, replicate 1: 3.52; cell count, replicate 1: 4293
